Pooled drug test results. Numbers come from NIAID ChemDB, via PubChem.

All rows: whole-cell or culture tests; species: HIV-1

Blank or dashed fields: not listed here. Rows are shuffled and stem from different studies. ECn is the concentration giving n% inhibition of infection, replication or growth.

smiles	cells	method	strain	read-out	changes	result
CCN1c2ncc(CCOc3ccc(C(=O)O)cc3C)cc2-c2nccn2-c2cccnc21	C8166	p24		EC50		<0.01 µM
O=C(C(=O)N1CCN(C(=O)c2ccccc2)CC1)c1c[nH]c2cccc(F)c12	MT-2		LAI	EC50		0.00293 µM
CC(C)C1=C2[C@H]3CC[C@@H]4[C@@]5(C)CC[C@H](OC(=O)[C@H]6C[C@@H](C(=O)O)C6(C)C)C(C)(C)[C@@H]5CC[C@@]4(C)[C@]3(C)CC[C@@]2(CCN(CCN(C)C)C(=O)c2cncnc2)CC1=O	MT-2	p24 / ELISA	92HT599	EC50		<1 µM
Cc1cn(C2OC(CO[Si](C)(C)C(C)(C)C)C3(OS(=O)(=O)C=C3N)C2O[Si](C)(C)C(C)(C)C)c(=O)n(/C=C/CO)c1=O	MT-4	trypan blue	IIIB	EC50		0.04 µM
COc1cc(C(=O)Sc2ccccc2C(=O)N[C@@H](C)C(N)=O)cc(OC)c1OC	CEM	XTT	RF	EC50		2.1 µM
CC(C)C1=C2[C@H]3CC[C@@H]4[C@@]5(C)CC[C@H](OC(=O)[C@H]6C[C@@H](C(=O)O)C6(C)C)C(C)(C)[C@@H]5CC[C@@]4(C)[C@]3(C)CC[C@@]2(CC(=O)NC(CN)CNC(=O)c2ccc(Cl)cc2)CC1=O	MT-2	p24 / ELISA	92HT599	EC50		<1 µM
CC(CC(F)(F)C(F)(F)C(F)(F)F)(C(=O)OCCOP(=O)([O-])O)C(F)(F)C(F)(F)C(F)(F)F.[NH3+]CCO	MT-4	cytopathic effect		EC50		4 µg/mL
N#Cc1c(SCCCSc2nsc(-c3ccccc3)c2C#N)nsc1-c1ccccc1	MT-4	cytopathic effect	IIIB	EC50		>125 µg/mL
CC(CC(F)(OC(F)(F)C(F)(F)C(F)(F)F)C(F)(F)F)(C(=O)OCCOP(=O)([O-])O)C(F)(OC(F)(F)C(F)(F)C(F)(F)F)C(F)(F)F.[NH3+]CCO	MT-4	cytopathic effect		EC50		35 µg/mL
Fc1cccc(F)c1CCNC(=S)Nc1ccccn1	MT-4	cytopathic effect / MTT	IIIB	EC50		0.03 µg/mL
COC1OC(CSC2OC(COC(C)=O)C(OC(C)=O)C(OC(C)=O)C2OC(C)=O)C(OC(C)=O)C(OC(C)=O)C1OC(C)=O	CEM MT-2 + CEM	XTT		EC50		>100 µg/mL
Fc1cccc(F)c1CCNC(=S)Nc1ncc(Cl)cc1Cl	MT-4	cytopathic effect / MTT	IIIB	EC50		0.887 µg/mL
Cc1cn([C@H]2C=C[C@](CO)(N=[N+]=[N-])O2)c(=O)[nH]c1=O	A3.01	RT activity	LAV	EC50		>2.5 µM
CC1(C)CC(NC(=O)C(=O)Nc2ccc(Br)cc2)CC(C)(C)N1	MT-2	p24	V32	EC50		4.43 µM
CCc1c(Cc2cc(C)cc(C)c2)n(COCC#Cc2cc(C(F)(F)F)cc(C(F)(F)F)c2)c(=O)[nH]c1=O	MT-4	MTT	IIIB	EC50	Y181C	60 µM
O=C1c2c(O)c(=O)n(CC3CCCN(c4ncccn4)C3)c(=O)n2CCN1Cc1ccc(F)cc1	MT-4	p24		EC50		<10 µM
Cc1ccc2nc(Nc3nc(Nc4ccc(C#N)cc4)nc(Oc4cc(=O)n(C)c5ccccc45)n3)sc2c1		MTT	IIIB	EC50		>3.88 µg/mL
C/C=C/CSc1cc(NC(=S)c2ccsc2C)ccc1Cl	CEM + CEM-SS	p24	NL4-3	EC50	RT-L74V	0.07 µM
CC(=O)OCC1OC(SC(C)=O)C(OC(C)=O)C(OC(C)=O)C1OC(C)=O	CEM MT-2 + CEM	XTT		EC50		>100 µg/mL
Cn1c(=O)cc(Oc2nc(Nc3ccc(C#N)cc3)nc(Nc3nc4ccc([N+](=O)[O-])cc4s3)n2)c2ccccc21		MTT	IIIB	EC50		>69.28 µg/mL
CCOS(=O)c1nsc(-c2ccc(OCc3ccccc3)cc2)c1C#N	MT-4	cytopathic effect	IIIB	EC50		>125 µg/mL
COc1ccc(C2(CCc3ccc(O)cc3)CC(O)=C(Sc3cc(C)c(CO)cc3C(C)(C)C)C(=O)O2)cc1	CEM + CEM-SS	cytopathic effect / XTT	RF	EC50		2 µM
O=C(O)C(O[C@@H]1C=C[C@H](n2cc(F)c(=O)[nH]c2=O)C1)P(=O)(O)O	CEM	syncytia	IIIB	EC50		>250 µM
COc1ccc2nc(Nc3nc(Nc4ccc(C#N)cc4)nc(Oc4cc(=O)n(C)c5ccccc45)n3)sc2c1		MTT	IIIB	EC50		4.45 µg/mL
CC(=O)OCC1OC(SC2C(OC(C)=O)OC(COC(C)=O)C(OC(C)=O)C2OC(C)=O)C(OC(C)=O)C(OC(C)=O)C1OC(C)=O	MT-2	XTT		EC50		8 µg/mL
CCN1c2ncc(CCOc3cccc4c3C=CS(=O)(=O)N4C)cc2-c2ncc(C)n2-c2cccnc21	C8166	p24		EC50		<0.01 µM
O=C1c2c(O)c(=O)n(CC(F)(F)F)c(=O)n2CCN1Cc1ccc(F)cc1	MT-4	p24		EC50		<10 µM
CC(C)CN(C[C@@H](O)[C@H](Cc1ccccc1)NC(=O)OCc1cncs1)S(=O)(=O)c1ccc2ncn(CC(C)C)c2c1	MT-4	cytopathic effect / MTT	LAI WT	EC50		0.04 µM
CCc1c(Cc2cc(C)cc(C)c2)n(COCC#Cc2ccc(CO[Si](c3ccccc3)(c3ccccc3)C(C)(C)C)cc2)c(=O)[nH]c1=O	MT-4	MTT	IIIB	EC50	Y181C	20 µM
Cn1c(=O)cc(Oc2nc(Nc3ccc(C#N)cc3)nc(Nc3nc4ccccc4s3)n2)c2ccccc21		MTT	IIIB	EC50		>82.93 µg/mL
CCc1c(Cc2cc(C)cc(C)c2)n(COCC#Cc2cccc(CO)c2)c(=O)[nH]c1=O	MT-4	MTT	IIIB	EC50	K103N + Y181C	1.8 µM
C=Cc1cccc([C@H]2c3ccccc3S(=O)(=O)N2C)c1	CEM + CEM-SS	cytopathic effect / XTT	RF	EC50		0.9 µM
Cc1ccc(NC(=S)NCCc2c(F)cccc2F)nc1	MT-4	cytopathic effect / MTT	IIIB	EC50		0.0011 µg/mL
CC(C)CN(C[C@@H](O)[C@H](Cc1ccccc1)NC(=O)OCc1cncs1)S(=O)(=O)c1ccc2nc(N)[nH]c2c1	MT-4	cytopathic effect / MTT	LAI WT	EC50		1.995 µM
N#Cc1c(-c2ccccc2)s[nH]c1=S	MT-4	cytopathic effect	IIIB	EC50		7.8 µg/mL
CC[C@H](C)[C@H](NC(=O)[C@H](Cc1ccccc1)CC(O)CN1C[C@H]2CCCC[C@H]2C[C@H]1C(=O)NC(C)(C)C)C(=O)N[C@H](C)c1nc2ccccc2[nH]1	MT-2	cytopathic effect / MTT	IIIB	EC50		0.85 µM
CC1(C)OC(c2cnn(-c3ccccc3)n2)C(C(O)CN2CCC(Cc3ccccc3)CC2)O1	CEM + CEM-SS	cytopathic effect / MTS	IIIB	EC50		>100 µM
C[C@@H]1C2[C@H](O)C[C@@]34C=C[C@@](C)(CCC3[C@@]23CC[C@@H]1OC3=O)C4	C8166	cytopathic effect		EC50		11.14 µM
Nc1nc2c(ncn2OCCOCP(=O)(O)O)c(=O)[nH]1	PBMC			EC50		0.01 µM
Cc1nnc(C(=O)NC(C)(C)c2nc(C(=O)NCc3ccc(F)cc3)c(O)c(=O)n2C)o1	C8166	syncytia	IIIB	EC50		0.005 µM
Cn1c(=O)cc(Oc2nc(Nc3ccc(C#N)cc3)nc(Sc3nnc(-c4ccncc4)o3)n2)c2ccccc21		MTT	IIIB	EC50		>68.75 µg/mL
CC(CC(F)(OC(F)(F)C(F)(F)C(F)(F)F)C(F)(F)F)(C(=O)OCCOP(=O)(O)O)C(F)(OC(F)(F)C(F)(F)C(F)(F)F)C(F)(F)F	MT-4	cytopathic effect		EC50		7.7 µg/mL
CCc1c(Cc2cc(C)cc(C)c2)n(COCC#Cc2ccccc2C(F)(F)F)c(=O)[nH]c1=O	MT-4	MTT	IIIB	EC50	Y181C	>25 µM
CC(C)CN(C[C@@H](O)[C@H](Cc1ccccc1)NC(=O)OC1COC2OCCC12)S(=O)(=O)c1ccc2nc(NC(=O)NCCN(C)C)[nH]c2c1	MT-4	cytopathic effect / MTT	LAI WT	EC50		2.512 µM
Cc1ccc(C(=O)Nc2cccc(C(=O)N/N=C/c3ccc(Br)cc3)c2)cc1	MT-2	cytopathic effect / XTT	IIIB	EC50		>100 µg/mL
CCc1c(Cc2ccccc2C)n(COCC#Cc2cccc3ccccc23)c(=O)[nH]c1=O	MT-4	MTT	IIIB	EC50	Y181C	>34 µM
CC1(C)C[C@@H](O)C[C@]2(C)C1CC[C@@]13C[C@@](O)(CCC12)[C@](C)(O)C3	293T	luciferase		EC50		9.1 µM
Nc1ccn([C@@H]2O[C@H](CO)C=C2F)c(=O)n1				EC50	RT-M184V	1.8 µM
CN1CCN(CC(O)C2OC(C)(C)OC2c2cnn(-c3ccccc3)n2)CC1	CEM + CEM-SS	cytopathic effect / MTS	IIIB	EC50		>100 µM
Cc1cn([C@@H]2C[C@@H](O)[C@@](CO)(N=[N+]=[N-])O2)c(=O)[nH]c1=O	A3.01		LAV	EC50		>200 µM
Cc1cn([C@H]2C[C@H](N=[N+]=[N-])[C@@H](CO)O2)c(=O)[nH]c1=O	MT-4	p24 / ELISA	NL4-3	EC50		0.00145 µM
[N-]=[N+]=N[C@@]1(CO)CO[C@@H](n2cnc3c(N)ncnc32)C1	MT-4			EC50		>100 µg/mL
CC1(C)Oc2ccc3ccc(=O)oc3c2[C@@H](OC(=O)C23CCC(C)(C(=O)O2)C3(C)C)[C@H]1OC(=O)C12CCC(C)(C(=O)O1)C2(C)C	MT-4	p24	NL4-3	EC50		0.1 µM
Nc1ncnc2c1ncn2OCC(CO)OCP(=O)(O)O	PBMC			EC50		0.63 µM
COC1OC(CSC2OC(CO)C(O)C(O)C2O)C(O)C(O)C1O	CEM MT-2 + CEM	XTT		EC50		>100 µg/mL
[2H]C([2H])(CNC(=O)C[C@@]12CC[C@]3(C)[C@H](CC[C@@H]4[C@@]5(C)CC[C@H](OC(=O)[C@H]6C[C@@H](C(=O)O)C6(C)C)C(C)(C)[C@@H]5CC[C@]43C)C1=C(C(C)C)C(=O)C2)NC(=O)c1ccc(Cl)cc1	MT-2	p24 / ELISA	92HT599	EC50		<1 µM
Nc1ccn(C2C[C@](N)(CO)CO2)c(=O)n1	MT-4			EC50		>100 µg/mL
CC(C)n1c(=O)c(O)c2n(c1=O)CCN(Cc1cccc3ccccc13)C2=O	MT-4	p24		EC95		<10 µM
Cc1cn(-c2ccc(CNC(=O)C[C@@]34CC[C@]5(C)[C@H](CC[C@@H]6[C@@]7(C)CC[C@H](OC(=O)[C@H]8C[C@@H](C(=O)O)C8(C)C)C(C)(C)[C@@H]7CC[C@]65C)C3=C(C(C)C)C(=O)C4)cc2)cn1	MT-2	p24 / ELISA	92HT599	EC50		<1 µM
Fc1cccc(F)c1CCNC(=S)Nc1cccc(Cl)n1	MT-4	cytopathic effect / MTT	IIIB	EC50		0.004 µg/mL
Cc1cn([C@@H]2CC[C@@](CO)(N=[N+]=[N-])O2)c(=O)[nH]c1=O	A3.01		LAV	EC50		>11.1 µM
Nc1ncnc2c1ncn2[C@@H]1C[C@@](OCP(=O)(O)O)(c2ccccc2)[C@@H](O)[C@H]1O				EC50		80 µM
[N-]=[N+]=N[C@@]1(CO)CO[C@H](n2cnc3c(N)ncnc32)C1	MT-4			EC50		>100 µg/mL
CCc1c(Cc2cc(C)cc(C)c2)n(COCC#Cc2cccc(C=O)c2)c(=O)[nH]c1=O	MT-4	MTT	IIIB	EC50	Y181C	3.6 µM
Cc1cn([C@H]2C[C@H](N=[N+]=[N-])[C@@H](CO)O2)c(=O)[nH]c1=O	MT-4	cytopathic effect	IIIB	EC50		0.0003 µg/mL
Cc1cn([C@H]2C[C@H](N=[N+]=[N-])[C@@H](CO)O2)c(=O)[nH]c1=O	MT-4	MTT	IIIB	EC50		0.0028 µM
CC(C)C1=C2[C@H]3CC[C@@H]4[C@@]5(C)CC[C@H](OC(=O)[C@H]6C[C@@H](C(=O)O)C6(C)C)C(C)(C)[C@@H]5CC[C@@]4(C)[C@]3(C)CC[C@@]2(CCNCC(C)(C)NC(=O)c2csc(N)n2)CC1=O	MT-2	p24 / ELISA	92HT599	EC50		<1 µM
Nc1nc2c(ncn2OCC2COP(=O)(O)CO2)c(=O)[nH]1	PBMC			EC50		0.44 µM
N#Cc1c(SCCCCSc2nsc(-c3ccccc3)c2C#N)nsc1-c1ccccc1	MT-4	cytopathic effect	IIIB	EC50		>125 µg/mL
CC(C)C1=C2[C@H]3CC[C@@H]4[C@@]5(C)CC[C@H](OC(=O)[C@H]6C[C@@H](C(=O)O)C6(C)C)C(C)(C)[C@@H]5CC[C@@]4(C)[C@]3(C)CC[C@@]2([C@@H](O)CNC(=O)[C@H](CO)NC(=O)c2ccc(Cl)cc2)CC1=O	MT-2	p24 / ELISA	92HT599	EC50		<1 µM
O=C(O)C(O[C@@H]1CC[C@H](n2cc(F)c(=O)[nH]c2=O)C1)P(=O)(O)O	CEM	syncytia	IIIB	EC50		>250 µM
CSc1nsc(-c2ccccc2)c1C#N	MT-4	cytopathic effect	IIIB	EC50		>125 µg/mL